# From patent US10765662B2, “Mono- or di-substituted indole derivatives as dengue viral replication inhibitors” (Janssen Pharmaceuticals, Inc., priority 2015, dated 2020)
# Tested on: DENV-2 16681 strain labeled with enhanced green fluorescent protein
# Assay: DENV-2 antiviral assay (eGFP fluorescence read-out in Vero cells)
# Format: cell-based, Dengue virus
# Settings: SI=CC50/EC50, DENV-2 antiviral assay
# Protocol: The antiviral activity of all the compounds of the invention was tested against the DENV-2 16681 strain which was labeled with enhanced green fluorescent protein (eGPF). The culture medium consists of minimal essential medium supplemented with 2% of heat-inactivated fetal calf serum, 0.04% gentamycin (50 mg/mL) and 2 mM of L-glutamine. Vero cells, obtained from ECACC, were suspended in culture medium and 25 μL was added to 384-well plates (2500 cells/well), which already contain the antiviral compounds. Typically, these plates contain a 5-fold serial dilution of 9 dilution steps of the test compound at 200 times the final concentration in 100% DMSO (200 nL). […] Finally, each plate contains wells which are assigned as virus controls (containing cells and virus in the absence of compound), cell controls (containing cells in the absence of virus and compound) and medium controls (containing medium in the absence of cells, virus and compounds). To the wells assigned as medium control, 25 μL of culture medium was added instead of Vero cells. Once the cells were added to the plates, the plates were incubated for 30 minutes at room temperature to allow the cells to distribute evenly within the wells. Next, the plates were incubated in a fully humidified incubator (37° C., 5% CO2) until the next day. Then, DENV-2 strain 16681, labeled with eGFP, was added at a multiplicity of infection (MOI) of 0.5. Therefore, 15 μL of virus suspension was added to all the wells containing test compound and to the wells assigned as virus control. In parallel, 15 μL of culture medium was added to the medium and cell controls. Next, the plates were incubated for 3 days in a fully humidified incubator (37° C., 5% CO2). At the day of the read out, the eGFP fluorescence was measured using an automated fluorescence microscope at 488 nm (blue laser). Using an in-house LIMS system, inhibition dose response curves for each compound were calculated and the half maximal effective concentration (EC50) was determined. Therefore, the percent inhibition (I) for every test concentration is calculated using the following formula: I=100*([…])/(SVC−SCC); ST, SCC and SVC are the amount of eGFP signal in the test compound, cell control and virus control wells, respectively. The EC50 represents the concentration of a compound at which the virus replication is inhibited with 50%, as measured by a 50% reduction of the eGFP fluorescent intensity compared to the virus control. The EC50 is calculated using linear interpolation (Table 1).
row,Structure (SMILES),SI
1,"COc1cc(NC(C(=O)c2c[nH]c3cc(OC)c(OC(F)(F)F)cc23)c2ccc(Cl)cc2OCCO)cc(S(C)(=O)=O)c1 (single isomer, unassigned) [Compound 11A, 2-(4-chloro-2-(2-hydroxyethoxy)phenyl)-2-((3-methoxy-5-(methylsulfonyl)phenyl)amino)-1-(6-methoxy-5-(trifluoromethoxy)-1H-indol-3-yl)ethanone]",>2220
2,"COc1cc(NC(C(=O)c2c[nH]c3c(C)cc(OC(F)(F)F)cc23)c2ccc(Cl)cc2OCCO)cc(S(C)(=O)=O)c1 (single isomer, unassigned) [Compound 12A, 2-(4-chloro-2-(2-hydroxyethoxy)phenyl)-2-((3-methoxy-5-(methylsulfonyl)phenyl)amino)-1-(7-methyl-5-(trifluoromethoxy)-1H-indol-3-yl)ethanone]",1030
